Source: patent US20080292704A1 (published 2008)

B1: recombinant FcγRI ligand binding domain, 6xHis tagged (receptor)
chain: QVDTTKAVITLQPPWVSVFQEETVTLHCEVLHLPGSSSTQWFLNGTATQTSTPSYRITSASVNDSGEYRCQRGLSGRSDPIQLEIHRGWLLLQVSSRVFTEGEPLALRCHAWKDKLVYNVLYYRNGKAFKFFHWNSNLTILKTNISHNGTYHCSGMGKHRYTSAGISVTVKELFPAPVLNASVTSPLLEGNLVTLSCETKLLLQRPGLQLYFSFYMGSKTLRGRNTSSEYQILTARREDSGLYWCEAATEDGNVLKRSPELELQVLGLQLPTPVWFH
B2: recombinant FcγRIIa ligand binding domain, 6xHis tagged (receptor)
chain: QAAAPPKAVLKLEPPWINVLQEDSVTLTCQGARSPESDSIQWFHNGNLIPTHTQPSYRFKANNNDSGEYTCQTGQTSLSDPVHLTVLSEWLVLQTPHLEFQEGETIMLRCHSWKDKPLVKVTFFQNGKSQKFSHLDPTFSIPQANHSHSGDYHCTGNIGYTLFSSKPVTITVQVPSMGSSSPMG
B3: recombinant FcγRIIb ligand binding domain, 6xHis tagged (receptor)
chain: TPAAPPKAVLKLEPQWINVLQEDSVTLTCRGTHSPESDSIQWFHNGNLIPTHTQPSYRFKANNNDSGEYTCQTGQTSLSDPVHLTVLSEWLVLQTPHLEFQEGETIVLRCHSWKDKPLVKVTFFQNGKSKKFSRSDPNFSIPQANHSHSGDYHCTGNIGYTLYSSKPVTITVQAP

The binders below were run against Hc (BoNT/A Hc with 6xHis tag) (Clostridium botulinum (C. Botulinum), …, UniProt P0DPI0 857-1296).

Q: Does B1 bind?
A: no binding

Q: Does B2 bind?
A: no binding

Q: Does B3 bind?
A: no binding
